This passage reports TI90 results from publication PMC7235863, “Benzamide Derivatives Targeting the Cell Division Protein FtsZ: Modifications of the Linker and the Benzodioxane Scaffold and Their Effects on Antimicrobial Activity” (Antibiotics, 2020).

One series has as its system MRSA ATCC 43300. The series is described as follows: MIC/MBC determination in LB broth, MRSA. Type of series: cell-based, Staphylococcus aureus. As to conditions: ratio between TD90 (MRC-5) and MBC. How it is done: (§1) Normal human lung fibroblasts (MRC-5) were grown in Dulbecco’s modified Eagle’s medium (DMEM) supplemented with 10% calf serum, 100 U/mL penicillin and […] streptomycin in an incubator at 5% CO2 atmosphere and 37 °C. The Gram-positive Staphylococcus aureus (methicillin-sensitive, MSSA ATCC 29213, and methicillin-resistant, MRSA ATCC 43300) and the Gram-negative Escherichia coli (ESBL, extended-spectrum beta-lactamase-positive) bacterial cells were grown in Luria-Bertani broth (LB) at 37 °C under constant shaking at 300 rpm.
(§2) The antibacterial activity was tested on both a methicillin-sensitive and a methicillin-resistant S. aureus strain, and an ESBL E. coli clinical isolate. All the compounds were dissolved at the final concentration of 20 mg/mL in dimethyl sulfoxide (DMSO) and serially diluted in LB. Fresh cell cultures were used at 10^5 cells/mL in a final volume of 2 mL. Each bacterial sample was grown with different compound concentrations that ranged from 100 to 0.1 μg/mL. […] To determine the MBC, the bacteria were then washed three times with LB, centrifuged at 900× g for 10 min at 4 °C, and the pellet resuspended in fresh LB. After overnight incubation at 37 °C, the absence of growth was confirmed by OD measurement. The presence of antibacterial activity, at any concentration tested, was established for values of absorbance < 0.1 OD600. All tests were performed in quadruplicate and for each series of experiments, both positive (no compounds) and negative (no bacteria) controls were included.

Another series relates to MSSA ATCC 29213. The experiment in a line: MIC/MBC determination in LB broth, MSSA. In kind it is cell-based, Staphylococcus aureus. As to conditions: ratio between TD90 (MRC-5) and MBC. As for the experimental part: as §1, §2

Take “3-(1,4-benzoxathiane-3-yl)-2,6-difluorobenzamide [Compound 3]”: the TI90 with MRSA ATCC 43300 and in the series with MSSA ATCC 29213 was 10 throughout.

Consider “3-(1,4-benzoxathiane-2-yl)-2,6-difluorobenzamide [Compound 1]”, for which the TI90 in the series on MRSA ATCC 43300 and in the series on MSSA ATCC 29213 was over 800 in each case.

Turning to “3-(1,4-benzodithiane-2-yl)-2,6-difluorobenzamide [Compound 5]”, the TI90 in the series with MRSA ATCC 43300 and in the series on MSSA ATCC 29213 was 20 in each case.

Consider `NC(=O)c1c(F)ccc(OCCC2COc3ccccc3O2)c1F` (centres unmarked) [Compound 7], for which the TI90 in the series on MRSA ATCC 43300 and in the series on MSSA ATCC 29213 was 76 in each case.
